In ChEMBL document CHEMBL3286361, “Design and discovery of flavonoid-based HIV-1 integrase inhibitors targeting both the active site and the interaction with LEDGF/p75” (Bioorg Med Chem, 2014):

Biological target: Human immunodeficiency virus type 1 integrase (Human immunodeficiency virus 1, UniProt Q7ZJM1)
Assay: Inhibition of recombinant HIV-1 integrase strand transfer activity using 32P 5' end-labeled linear 21'mer as substrate preincubated for 30 mins prior to substrate challenge by phosphorimaging analysis

IC50: 780 nM
SMILES: O=c1cc(-c2ccccc2)oc2cc(O)c(O)c(O)c12 [BAICALEIN]
